We go through two compounds from PubChem BioAssay AID743201 (The Scripps Research Institute Molecular Screening Center, 2013).

The list shows a part of the results, in another mix than the full data. The source made the active and inactive calls. No stated cut-off is given here; in the data, active means inhibition above about 9.5%; inactive means the rest.

The assay in a line: LD9 cell viability loss – luminescence, high throughput, cytotoxicity control for cell surface PrPc inhibitor project (AID 743201). The following applies: LD9 cells cytotoxicity, at 13.8 µM, active compounds read high.
For `Cc1c2c(nc3ccccc13)SC(C(Cl)Cl)C2` (configuration not stated), the inhibition is inactive: -7.69%.

With `Cc1ccc2nc3c(c(C)c2c1)CC(C(Cl)Cl)S3` (configuration not stated), the inhibition is inactive: -0.73%.
